Laboratory results reported in the supplement of paper PMC3578754.
Fold change is the IC50 on the isolate divided by the IC50 on a reference virus; 1 = unchanged, higher = more resistant. Changes are given against the subtype B consensus. No active / inactive call. The values were gathered from many studies (numbered anew) with different assays, which the source does not name. Most viruses are clinical isolates; some are laboratory strains or clones with known resistance changes. Isolates with mixed residues are left out; stretches that were not sequenced show no change. Round top values that many isolates share are read here as limits; other very high values and 0.1 may be limits too. For some of these results: The protease changes I3V and N37S, insertions and deletions cannot be read from the source.

Columns and labels:
[1] = compound: CC(C)Nc1cccnc1N1CCN(C(=O)c2cc3cc(NS(C)(=O)=O)ccc3[nH]2)CC1 [delavirdine]; assay: fold change of IC50 against reference virus; higher = more resistant
Procedure: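 Cell-culture drug susceptibility tests of virus bearing the reverse transcriptase of each isolate, gathered from many studies.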

[2] = compound: CC(C)(C)NC(=O)[C@@H]1CN(Cc2cccnc2)CCN1C[C@@H](O)C[C@@H](Cc1ccccc1)C(=O)N[C@H]1c2ccccc2C[C@H]1O [indinavir]; assay: fold change of IC50 against reference virus; higher = more resistant; Cell-culture drug susceptibility tests of virus bearing the protease of each isolate, gathered from many studies.
[3] = compound: Cc1cccc(C)c1OCC(=O)N[C@@H](Cc1ccccc1)[C@@H](O)C[C@H](Cc1ccccc1)NC(=O)[C@H](C(C)C)N1CCCNC1=O [lopinavir]; assay: as above
[4] = compound: CC(C)(C)NC(=O)[C@@H]1C[C@@H]2CCCC[C@@H]2CN1C[C@@H](O)[C@H](Cc1ccccc1)NC(=O)[C@H](CC(N)=O)NC(=O)c1ccc2ccccc2n1 [saquinavir]; assay: as above
[5] = compound: COC(=O)N[C@H](C(=O)N[C@@H](Cc1ccccc1)[C@@H](O)CN(Cc1ccc(-c2ccccn2)cc1)NC(=O)[C@@H](NC(=O)OC)C(C)(C)C)C(C)(C)C [atazanavir]; assay: as above
[6] = compound: CC(C)c1nc(CN(C)C(=O)N[C@H](C(=O)N[C@@H](Cc2ccccc2)C[C@H](O)[C@H](Cc2ccccc2)NC(=O)OCc2cncs2)C(C)C)cs1 [ritonavir]; assay: as above
[7] = compound: Cc1c(O)cccc1C(=O)N[C@@H](CSc1ccccc1)[C@H](O)CN1C[C@H]2CCCC[C@H]2C[C@H]1C(=O)NC(C)(C)C [nelfinavir]; assay: as above

Test System	fold change of IC50 against reference virus [1]	fold change of IC50 against reference virus [2]	fold change of IC50 against reference virus [3]	fold change of IC50 against reference virus [4]	fold change of IC50 against reference virus [5]	fold change of IC50 against reference virus [6]	fold change of IC50 against reference virus [7]
HIV-1 isolate 255 (reverse transcriptase changes: S68G K122E I135T V179A, study 84)	1	–	–	–	–	–	–
HIV-1 isolate 404 (reverse transcriptase changes: K64R K103N I135T Y181C G196E E204D, study 84)	62	–	–	–	–	–	–
HIV-1 isolate 607 (reverse transcriptase changes: K64R K103N K122E I178M, study 84)	29	–	–	–	–	–	–
HIV-1 isolate 434 (reverse transcriptase changes: V90I K103N K122E I142V Y181C R211K, study 84)	150	–	–	–	–	–	–
HIV-1 isolate 1135 (reverse transcriptase changes: K70R D123E S162C T200I R211K, study 84)	1	–	–	–	–	–	–
HIV-1 isolate 817 (reverse transcriptase changes: V106A K122E F214L P225H A272P K277R A376T A400T D460N S468T H483Y K512Q S519N, study 11)	4	–	–	–	–	–	–
HIV-1 isolate 1436 (reverse transcriptase changes: K49R I135V S162C Y181C T200A R211K, study 84)	18	–	–	–	–	–	–
HIV-1 isolate 150 (reverse transcriptase changes: V106A K122E F214L A272P K277R A376T A400T D460N S468T H483Y K512Q S519N, study 11)	25	–	–	–	–	–	–
HIV-1 isolate 1573 (reverse transcriptase changes: K70R K103N D123E S162C R211K, study 84)	12	–	–	–	–	–	–
HIV-1 isolate 1145 (reverse transcriptase changes: D121Y K122E G196E R211G V245K, study 84)	1	–	–	–	–	–	–
HIV-1 isolate 89 (reverse transcriptase changes: S68G K103N K122E I135T V179A Y181C, study 84)	100	–	–	–	–	–	–
HIV-1 isolate 164 (reverse transcriptase changes: K103N D121Y K122E Y181C G196E R211G V245K, study 84)	140	–	–	–	–	–	–
HIV-1 isolate 1045 (reverse transcriptase changes: K103N D121Y K122E Y181C G196E R211G V245K, study 84)	≥ 250	–	–	–	–	–	–
HIV-1 isolate 1054 (protease changes: I15V N37D I93L, study 15)	–	0.9	0.7	0.8	0.9	0.5	0.5
HIV-1 isolate 525 (protease changes: I15V K20R E35D M36I N37D F53L I62V L63P H69K A71T I72V V77I V82A, study 15)	–	1.6	2.2	0.6	2.1	11	1.6
HIV-1 isolate 703 (protease changes: L10F I13V L19I L24I L33F M46I I54V K55R L63P A71V L76V V82A I93L L97I, study 64)	–	37	170	1.6	1.2	44	8.3
HIV-1 isolate 958 (protease changes: L10I L24I M46I L63P G73T L90M, study 138)	–	24.5	7.5	16.2	10.8	9.3	56
HIV-1 isolate 1619 (protease changes: I15V D30N E35D M36V N37T K45Q M46V I64V, study 65)	–	0.8	0.5	0.8	2.2	0.7	24

Test System	fold change of IC50 against reference virus [1]	fold change of IC50 against reference virus [2]	fold change of IC50 against reference virus [3]	fold change of IC50 against reference virus [4]	fold change of IC50 against reference virus [5]	fold change of IC50 against reference virus [6]	fold change of IC50 against reference virus [7]
HIV-1 isolate 285 (protease changes: L10I I15V L63P A71V V77I I85V N88D L90M, study 15)	–	10	6.2	165	11	41	13
HIV-1 isolate 1384 (protease changes: L19I R41K L63P I72M V77I L90M, study 15)	–	1.4	1	1.5	1.5	2.6	2.9
HIV-1 isolate 538 (protease changes: I15V L19T K43R H69Y, study 15)	–	0.6	0.6	0.5	0.6	0.8	0.7
HIV-1 isolate 516 (protease changes: L10I V11I I13V I15V K20R V32I L33F E35D M36I N37D K43T M46I F53L I54M R57K D60E L63P K70E A71L T74P V82A I84V L89V L90M, study 15)	–	62	120	500	500	300	160
HIV-1 isolate 117 (protease changes: L33I N37T P39S R41K D60E L63P I64V H69Y, study 15)	–	0.9	0.6	0.6	0.9	0.7	0.7
HIV-1 isolate 1251 (protease changes: L10I L24I M46I F53L L63P A71V V77I V82T I84V, study 138)	–	8.4	10.9	20.9	17.2	61.5	6.1
HIV-1 isolate 1182 (protease changes: I13V E35D L63P A71V V77I I93L, study 15)	–	1.2	0.7	0.8	1.2	0.9	1.5
HIV-1 isolate 271 (protease changes: T12S I15V L19I K20R E35D M36I R41K H69K L89M I93L, study 41)	–	0.7	0.6	0.6	0.8	1.1	0.8
HIV-1 isolate 1212 (protease changes: N37T L63P, study 15)	–	1.2	1.3	1	1.5	1.7	1.9
HIV-1 isolate 1167 (protease changes: L10F I13V I54V I62V L63P A71V V82A, study 21)	–	9.6	30	2.1	2.3	19	12
HIV-1 isolate 13 (protease changes: T12E L63P, study 15)	–	0.8	1.1	0.8	1.1	1.2	1.1
HIV-1 isolate 67 (protease changes: L10Y K20I E35D M36I N37D I54L R57K L63P I66V A71V G73S I84V I85V L90M, study 15)	–	24	8.5	300	32	52	91
HIV-1 isolate 132 (protease changes: L10V D30N E35D M36V L63P A71V N88D I93L, study 64)	–	3.1	2.6	4	7	1.8	71
HIV-1 isolate 1527 (protease changes: L10I K20I M36I I54V L63P A71V V82T, study 138)	–	23.4	10.1	7.1	15.2	36.7	29.8
HIV-1 isolate 128 (protease changes: K43R R57K I62V L63P A71T I72V V77I I93L, study 83)	–	1	0.7	0.7	0.9	0.8	1.4
HIV-1 isolate 1009 (protease changes: I15V R41K K43R L63P I93L, study 15)	–	1	0.8	0.9	1.3	0.7	0.9
HIV-1 isolate 1103 (protease changes: I13V K20R D30N E35D M36I F53L R57K I62V L63A I66V A71I N88D L90M, study 15)	–	2.2	1.8	40	8.4	9.2	88
HIV-1 isolate 1241 (protease changes: L63P, study 138)	–	0.8	0.6	0.8	0.7	0.7	1
